Values from PubChem BioAssay AID1259414 (Drosophila RNAi Screening Center, 2018).
The deposit covers about 24,000 reagents; below is an unselected part of those with a known target gene and a result. In the full data, about 1,210 (5%) got an active call. 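Inactive calls also include excluded dsRNAs with several or no targets, genes unexpressed in JW18, and well A1, regardless of score.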 A number with no mark means an inactive call.

- Assay: 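Fly genes that alter Wolbachia amount inside host cells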 (primary screen)
- Cell system: Drosophila JW18 cells infected with Wolbachia
- Knock-down reagent: long dsRNA against Drosophila genes, 0.25 µg dsRNA per well of a 384-well plate
- Time to read-out: 5 days
- Conditions: cells persistently infected with Wolbachia before knock-down; no added drug
- Read-out: 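Automated imaging of bacterial rRNA staining divided by host cell count, reported as plate-normalised robust z-score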
- Reading the numbers: Wolbachia per cell robust z: higher = more Wolbachia per host cell than the plate typical
- Active means: 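Active if absolute robust z reaches 1.5 in two or more of three replicates, leaving out multi- or no-target dsRNAs, genes unexpressed in JW18 and A1 wells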

| Gene | DRSC id | Wolbachia per cell robust z, rep 1 | Wolbachia per cell robust z, rep 2 | Wolbachia per cell robust z, rep 3 |
| --- | --- | --- | --- | --- |
| NdufA3 (NADH:ubiquinone oxidoreductase subunit A3) | DRSC18431 | -0.43 | 0.472 | -0.557 |
| CG17233 | DRSC23352 | 1.7 | 0.166 | 1.29 |
| CG9921 | DRSC20220 | 0.696 | -1.43 | -0.171 |
| CG12994 | DRSC19514 | -2.58 | 1.37 | 0.871 |
| CG43237 | DRSC40520 | -1.5 | -1.39 | -2.85 |
| CG32631 | DRSC19768 | -1.25 | -2.7 | 0.662 |
| CG32631 | DRSC28596 | 1.09 | -0.209 | 1.42 |
| zyd (zydeco) | DRSC20716 | 0.573 | 0.403 | 0.988 |
| prod (proliferation disrupter) | DRSC07667 | 0.726 | -0.52 | -0.887 |
| prod (proliferation disrupter) | DRSC25498 | -0.137 | -0.0749 | -0.0494 |
| Bka (Bekka) | DRSC02757 | 0.535 | 1.48 | 0.229 |
| CG13627 | DRSC14629 | -4.04 | -1.97 | 0.462 |
| Prosalpha4T1 (Proteasome alpha4 subunit, Testis-specific 1) | DRSC16800 | 0.734 | -0.465 | 0.121 |
| Prosalpha4T1 (Proteasome alpha4 subunit, Testis-specific 1) | DRSC28895 | 0.169 | -0.37 | 1.35 |
| simj (simjang) | DRSC10942 | -7.26 | -0.315 | -0.714 |
| simj (simjang) | DRSC25345 | 1.43 | -0.671 | 0.617 |
| simj (simjang) | DRSC38963 | 0.486 | 0.923 | 1.21 |
| CG42329 | DRSC00373 | -6.72 | -6.9 | 0.461 |
| CG42329 | DRSC00682 | -0.735 | -0.0661 | -0.297 |
| CG13059 | DRSC09942 | 0.0419 | 0.14 | -2.33 |
| SF2 (Splicing factor 2) | DRSC16845 | 0.537 | 1.09 | 1.6 |
| roq (roquin) | DRSC10227 | -2.5 (active) | -1.64 | -1.91 |
| Vm26Ab (Vitelline membrane 26Ab) | DRSC03473 | -4.54 | -4.19 | -3.54 |
| Vm26Ab (Vitelline membrane 26Ab) | DRSC25223 | -1.19 | -0.12 | -1.28 |
| Cda9 (Chitin deacetylase-like 9) | DRSC06593 | 0.736 | 0.508 | -0.0812 |
| cic (capicua) | DRSC16918 | -3.89 | 0.84 | 0.61 |
| cic (capicua) | DRSC21243 | 0.0903 | 0.472 | 0.935 |
| cic (capicua) | DRSC23217 | 0.774 | 0.79 | 0.934 |
| cic (capicua) | DRSC25516 | -0.921 | -0.386 | 0.659 |
| cic (capicua) | DRSC25800 | -1.31 | -1.66 | 0.104 |
| cic (capicua) | DRSC30090 | -1.42 | -0.348 | -0.434 |

The list goes on, starting with the last 7 of the part before.
| Gene | DRSC id | Wolbachia per cell robust z, rep 1 | Wolbachia per cell robust z, rep 2 | Wolbachia per cell robust z, rep 3 |
| --- | --- | --- | --- | --- |
| Cda9 (Chitin deacetylase-like 9) | DRSC06593 | 0.736 | 0.508 | -0.0812 |
| cic (capicua) | DRSC16918 | -3.89 | 0.84 | 0.61 |
| cic (capicua) | DRSC21243 | 0.0903 | 0.472 | 0.935 |
| cic (capicua) | DRSC23217 | 0.774 | 0.79 | 0.934 |
| cic (capicua) | DRSC25516 | -0.921 | -0.386 | 0.659 |
| cic (capicua) | DRSC25800 | -1.31 | -1.66 | 0.104 |
| cic (capicua) | DRSC30090 | -1.42 | -0.348 | -0.434 |
| Nadsyn (NAD synthetase) | DRSC20222 | -0.548 | 0.155 | -0.711 |
| CG31019 | DRSC13994 | 0.511 | -0.705 | 1.33 |
| CG31019 | DRSC26555 | -0.451 | -1.01 | 1.02 |
| Nna1 (Nna1 carboxypeptidase) | DRSC19404 | -0.492 | -1.15 | -0.37 |
| Nna1 (Nna1 carboxypeptidase) | DRSC19405 | -5.68 (active) | -0.0727 | -3.27 |
| Nna1 (Nna1 carboxypeptidase) | DRSC26989 | -0.138 | -1.59 | 0.285 |
| Eip93F (Ecdysone-induced protein 93F) | DRSC23072 | -3.16 | -0.00445 | 0.189 |
| Eip93F (Ecdysone-induced protein 93F) | DRSC27506 | -1.33 | 0.025 | -1.54 |
| CG2100 | DRSC12303 | -2.27 | 0.599 | 0.538 |
| Aps (Aps pyrophosphatase) | DRSC10629 | 0.815 | -0.197 | -0.247 |
| Aps (Aps pyrophosphatase) | DRSC41389 | 0.648 | -0.173 | 0.438 |
| bw (brown) | DRSC04005 | -0.173 | -0.992 | -2.89 |
| bw (brown) | DRSC04677 | -0.806 | -0.633 | -0.836 |
| Cpr60D (Cuticular protein 60D) | DRSC04492 | 0.588 | 1.1 | 0.494 |
| blot (bloated tubules) | DRSC09485 | 0.947 | 0.354 | 0.399 |
| blot (bloated tubules) | DRSC11328 | 0.499 | 0.751 | 0.47 |
| blot (bloated tubules) | DRSC26157 | 2.72 | 0.017 | -0.353 |
| Oseg4 (Outer segment 4) | DRSC08548 | -0.141 | 0.775 | 0.0805 |
| CG17258 | DRSC00495 | -1.14 | 0.679 | -0.155 |
| CG17258 | DRSC22709 | -1.29 | -0.632 | 0.583 |
| CG17258 | DRSC28524 | -0.448 | -0.408 | 0.137 |
| CG6769 | DRSC20006 | -0.148 | 0.0961 | 0.0872 |
| Cyp6t1 (Cytochrome P450 6t1) | DRSC20564 | -0.356 | -0.128 | 0.0728 |
| Cyp6t1 (Cytochrome P450 6t1) | DRSC24235 | -0.626 | -0.601 | 0.469 |
| Crtp (Caldesmon-related protein) | DRSC04604 | 1.07 | 0.406 | 1.62 |
| Crtp (Caldesmon-related protein) | DRSC26423 | 0.395 | 1.09 | -0.424 |
| CG13564 | DRSC04201 | 0.261 | -0.611 | 0.156 |
| FER (FER tyrosine kinase) | DRSC12735 | 0.288 | 0.173 | 0.109 |
| FER (FER tyrosine kinase) | DRSC16673 | -1.28 | 0.0647 | -0.391 |
| FER (FER tyrosine kinase) | DRSC29894 | -0.138 | 1.15 | 0.676 |
| Fadd (Fas-associated death domain) | DRSC14122 | 0.731 | 0.807 | 0.231 |
| Ir60d (Ionotropic receptor 60d) | DRSC04218 | -1.14 | 0.335 | -5.09 |
| Es2 | DRSC18663 | -1.97 | -0.337 | -0.582 |
| Es2 | DRSC27829 | -0.00039 | 0.835 | 0.968 |
| TpnC47D (Troponin C at 47D) | DRSC07564 | -0.612 | -0.428 | -1.4 |
| TpnC47D (Troponin C at 47D) | DRSC41545 | -0.00995 | -0.226 | -0.247 |
| CG31663 | DRSC00078 | -0.303 | 0.465 | 0.287 |
| CG31663 | DRSC00389 | -1.1 | 0.565 | 0.501 |
| CG31663 | DRSC00390 | 0.273 | 0.978 | -1.18 |
| CG31663 | DRSC00393 | 0.336 | 0.00352 | -6.35 |
